Compound potency records, mixed from different reports. Data source: NIAID ChemDB in PubChem.

Common to all: tests in culture; agent: Mycobacterium avium complex

Lines come from different laboratories, so protocols vary. MIC50, MIC90 and the like: level of inhibition, or share of isolates inhibited. Blank or dashed fields: not listed here.

structure,endpoint,strain or isolate,result
CC(C)N=c1cc2n(-c3ccc(Cl)cc3)c3ccccc3nc-2cc1Nc1ccc(Cl)cc1,MIC,535/HIV+,0.25 µg/mL
CN1CCCC1CCN=c1cc2n(-c3ccc(Cl)cc3)c3ccccc3nc-2cc1Nc1ccccc1,MIC50,10 srtains,0.4 µg/mL
CN(C)c1c(F)c(N2CCC(N(C)C)C2)c(F)c2c1c(=O)c(C(=O)O)cn2C1CC1,MIC,1988557,32 µg/mL
CCn1cc(C(=O)O)c(=O)c2cc(F)c(N3CCN(C)CC3)cc21,MIC,CIPT 140310023,20 µg/mL
CO[C@H]1/C=C/O[C@@]2(C)Oc3c(C)c(O)c4c(=O)c(c5oc6cc(N7CCN(CC(C)C)CC7)cc(=O)c6nc5c4c3=C2O)NC(=O)/C(C)=C\C=C\[C@H](C)[C@H](O)[C@@H](C)[C@@H](O)[C@@H](C)[C@H](OC(C)=O)[C@@H]1C,MIC90,18 strains,1.56 µg/mL
CC1(CN)CCN(c2c(F)cc3c(=O)c(C(=O)O)cn(C4CC4)c3c2F)C1,MIC,1915112,32 µg/mL
CC[C@H]1OC(=O)[C@H](C)[C@@H](O[C@H]2C[C@@](C)(OC)[C@@H](O)[C@H](C)O2)[C@H](C)[C@@H](O[C@@H]2O[C@H](C)C[C@H](N(C)C)[C@H]2O)[C@](C)(OC)C[C@@H](C)C(=O)[C@H](C)[C@@H](O)[C@]1(C)O,MIC90,32 isolates,2 µg/mL
CN[C@@H]1[C@H](O[C@H]2[C@H](O[C@H]3[C@H](O)[C@@H](O)[C@H](N=C(N)N)[C@@H](O)[C@@H]3N=C(N)N)O[C@@H](C)[C@]2(O)C=O)O[C@@H](CO)[C@H](O)[C@H]1O,MIC50,-,2.2 µg/mL
CC[C@@H](CO)NCCN[C@@H](CC)CO,MIC,LPR,16 µg/mL
CC[C@@H](C)N1CCN(c2cc(=O)c3nc4c(oc3c2)c2c(=O)c3c(O)c(C)c5c(c34)=C(O)[C@@](C)(O/C=C/[C@H](OC)[C@@H](C)[C@@H](OC(C)=O)[C@H](C)[C@H](O)[C@H](C)[C@@H](O)[C@@H](C)/C=C/C=C(/C)C(=O)N2)O5)CC1,MIC50,18 strains,0.1 µg/mL
CC(C)Sc1nc2ccccc2[nH]1,MIC,MY330/88,>500 µM
CC[C@@H](CO)NCCN[C@@H](CC)CO,MIC50,32 isolates,8 µg/mL
CO[C@H]1/C=C/O[C@@]2(C)Oc3c(C)c(O)c4c(=O)c(c5oc6cc(N7CCN(CC(C)C)CC7)cc(=O)c6nc5c4c3=C2O)NC(=O)/C(C)=C\C=C\[C@H](C)[C@H](O)[C@@H](C)[C@@H](O)[C@@H](C)[C@H](OC(C)=O)[C@@H]1C,MIC,31F093T,0.07 µg/mL
CC1CN(c2nc3c(cc2F)c(=O)c(C(=O)O)cn3C2CC2)CC1N,MIC50,-,8.8 µg/mL
NC[C@@H]1O[C@H](O[C@H]2[C@@H](O)[C@H](O[C@@H]3[C@@H](O)[C@H](N)C[C@H](N)[C@H]3O[C@H]3O[C@H](CO)[C@@H](O)[C@H](O)[C@H]3N)O[C@@H]2CO)[C@H](N)[C@@H](O)[C@@H]1O,MIC,545/HIV+,1.56 µg/mL
CC(=O)NC[C@H]1CN(c2ccc(-c3ccc(-c4nnnn4C)nc3)c(F)c2)C(=O)O1,MIC90,13 isolates,8 µg/mL
NC1CCCCN(c2c(F)cc3c(=O)c(C(=O)O)cn(C4CC4)c3c2F)C1=O,MIC,1760694,32 µg/mL
Cc1cc2nc3c(=O)[nH]c(=O)nc-3n(C[C@H](O)[C@H](O)[C@H](O)CO)c2cc1C,MIC50,32 isolates,64 µg/mL
CO[C@H]1/C=C/O[C@@]2(C)Oc3c(C)c(O)c4c(O)c(c(/C=N/N5CCN(C)CC5)c(O)c4c3C2=O)NC(=O)/C(C)=C\C=C\[C@H](C)[C@H](O)[C@@H](C)[C@@H](O)[C@@H](C)[C@H](OC(C)=O)[C@@H]1C,MIC,31F093T,5 µg/mL
CCNCC1CCN(c2c(F)cc3c(=O)c(C(=O)O)cn(CC)c3c2F)C1,MIC50,-,11.9 µg/mL
O=C(O)c1cn(C2CC2)c2c(F)c(N3CCSCC3)c(F)cc2c1=O,MIC90,14 strains,16 µg/mL
CCn1cc(C(=O)O)c(=O)c2cc(F)c(N3CCN(C)CC3)cc21,MIC50,17 isolates,16 µg/mL
CC[C@H]1OC(=O)[C@H](C)[C@@H](O[C@H]2C[C@@](C)(OC)[C@@H](O)[C@H](C)O2)[C@H](C)[C@@H](O[C@@H]2O[C@H](C)C[C@H](N(C)C)[C@H]2O)[C@](C)(OC)C[C@@H](C)C(=O)[C@H](C)[C@@H](O)[C@]1(C)O,MIC,LPR,1 µg/mL
CC(C)N=c1cc2n(-c3ccc(Cl)cc3)c3ccccc3nc-2cc1Nc1ccc(Cl)cc1,MIC90,-,0.23 µg/mL
Clc1ccc(Nc2cc3nc4ccccc4n(-c4ccc(Cl)cc4)c-3cc2=NCCCN2CCCC2)cc1,MIC90,10 srtains,2 µg/mL
NC(=S)c1ccc(CSc2nc3ccccc3[nH]2)cc1,MIC,MY330/88,32 µM
CCCN1CCN(c2cc(=O)c3nc4c(oc3c2)c2c(=O)c3c(O)c(C)c5c(c34)=C(O)[C@@](C)(O/C=C/[C@H](OC)[C@@H](C)[C@@H](OC(C)=O)[C@H](C)[C@H](O)[C@H](C)[C@@H](O)[C@@H](C)/C=C/C=C(/C)C(=O)N2)O5)CC1,MIC90,20 strains,0.3 µg/mL
CC[C@@H](CO)NCCN[C@@H](CC)CO,MBC,9838,30 µg/mL
CO[C@H]1/C=C/O[C@@]2(C)Oc3c(C)c(O)c4c(O)c(c(/C=N/N5CCN(C6CCCC6)CC5)c(O)c4c3C2=O)NC(=O)/C(C)=C\C=C\[C@H](C)[C@H](O)[C@@H](C)[C@@H](O)[C@@H](C)[C@H](OC(C)=O)[C@@H]1C,MIC50,-,0.19 µg/mL
C[C@@H]1CN(c2c(F)c(N)c3c(=O)c(C(=O)O)cn(C4CC4)c3c2F)C[C@H](C)N1,MIC,101,2 µg/mL
CO[C@H]1/C=C/O[C@@]2(C)Oc3c(C)c(O)c4c(O)c(c(/C=N/N5CCN(C/C=C/c6ccccc6)CC5)c(O)c4c3C2=O)NC(=O)/C(C)=C\C=C\[C@H](C)[C@H](O)[C@@H](C)[C@@H](O)[C@@H](C)[C@H](OC(C)=O)[C@@H]1C,MIC,5718,0.06 µg/mL
Cn1nnnc1SCC1=C(C(=O)O)N2C(=O)[C@@H](NC(=O)[C@H](O)c3ccccc3)[C@H]2SC1,MIC90,-,54.7 µg/mL
CN[C@@H]1[C@H](O[C@H]2[C@H](O[C@H]3[C@H](O)[C@@H](O)[C@H](N=C(N)N)[C@@H](O)[C@@H]3N=C(N)N)O[C@@H](C)[C@]2(O)C=O)O[C@@H](CO)[C@H](O)[C@H]1O,MIC,ATCC 15769,25 µg/mL
C[C@H]1COc2c(N3CCN(C)CC3)c(F)cc3c(=O)c(C(=O)O)cn1c23,MIC50,12 strains,4 µg/mL
CO[C@H]1/C=C/O[C@@]2(C)Oc3c(C)c(O)c4c(O)c(c(/C=N/N5CCN(C6CCCC6)CC5)c(O)c4c3C2=O)NC(=O)/C(C)=C\C=C\[C@H](C)[C@H](O)[C@@H](C)[C@@H](O)[C@@H](C)[C@H](OC(C)=O)[C@@H]1C,MIC,Isolate A,0.125 µg/mL
O=C(O)c1cn(C2CC2)c2c(F)c(N3CCNCC3)c(F)cc2c1=O,MIC,1915112,2 µg/mL
CCC(C)N1CCN(c2cc(=O)c3nc4c(oc3c2)c2c(=O)c3c(O)c(C)c5c(c34)=C(O)[C@@](C)(O/C=C/[C@H](OC)[C@@H](C)[C@@H](OC(C)=O)[C@H](C)[C@H](O)[C@H](C)[C@@H](O)[C@@H](C)/C=C/C=C(/C)C(=O)N2)O5)CC1,MIC,31F093T,0.035 µg/mL
N[C@@H]1CONC1=O,MIC,32 isolates,16 µg/mL
NCCC(O)C(N)CC(=O)NC1CNC(=O)C(C2CCN=C(N)N2)NC(=O)/C(=C/NC(N)=O)NC(=O)C(CO)NC(=O)C(CO)NC1=O,MIC,13034 (serotype 18),100 µg/mL
CN1CCN(CCCN=c2cc3n(-c4ccc(Cl)cc4)c4ccccc4nc-3cc2Nc2ccccc2)CC1,MIC50,10 srtains,1.43 µg/mL
CN[C@@H]1[C@H](O[C@H]2[C@H](O[C@H]3[C@H](O)[C@@H](O)[C@H](N=C(N)N)[C@@H](O)[C@@H]3N=C(N)N)O[C@@H](C)[C@]2(O)C=O)O[C@@H](CO)[C@H](O)[C@H]1O,MIC,13016 (serotype 4),1.6 µg/mL
CO[C@H]1/C=C/O[C@@]2(C)Oc3c(C)c(O)c4c(=O)c(c5oc6cc(N7CCCCC7)cc(=O)c6nc5c4c3=C2O)NC(=O)/C(C)=C\C=C\[C@H](C)[C@H](O)[C@@H](C)[C@@H](O)[C@@H](C)[C@H](OC(C)=O)[C@@H]1C,MIC,31F093T,0.15 µg/mL
CN1CC2CCC1CN2c1c(F)cc2c(=O)c(C(=O)O)cn(C3CC3)c2c1F,MIC,1988557,2 µg/mL
CC(=O)OCC1=C(C(=O)O)N2C(=O)[C@@H](NC(=O)CSc3ccncc3)[C@H]2SC1,MIC50,-,33 µg/mL
CO[C@H]1/C=C/O[C@@]2(C)Oc3c(C)c(O)c4c(O)c(c5c(c4c3C2=O)NC2(CCN(CC(C)C)CC2)N=5)=NC(=O)/C(C)=C\C=C\[C@H](C)[C@H](O)[C@@H](C)[C@@H](O)[C@@H](C)[C@H](OC(C)=O)[C@@H]1C,MIC,LPR,2 µg/mL
NNC(=O)c1ccncc1,MIC50,-,1.5 µg/mL
N#Cc1cccc(CSc2nc3ccccc3[nH]2)c1,MIC,MY330/88,>62 µM
NCC1CCN(c2c(F)cc3c(=O)c(C(=O)O)cn(C4CC4)c3c2F)C1,MIC,1988557,2 µg/mL
CC(C)N=c1cc2n(-c3ccc(Cl)cc3)c3ccccc3nc-2cc1Nc1ccc(Cl)cc1,MIC,Isolate A,1 µg/mL
CCCC[C@@H]1CC(=O)[C@]2(O)O[C@@H]3[C@@H](NC)[C@@H](O)[C@@H](NC)[C@H](O)[C@H]3O[C@@H]2O1,MIC50,-,10.4 µg/mL
NC1CCN(c2c(F)cc3c(=O)c(C(=O)O)cn(C4CC4)c3c2Cl)C1,MIC,101,15 µg/mL
O=[N+]([O-])c1ccc(CSc2nc3ccccc3[nH]2)c([N+](=O)[O-])c1,MIC,MY330/88,32 µM
CC[C@H]1OC(=O)[C@H](C)[C@@H](O[C@H]2C[C@@](C)(OC)[C@@H](O)[C@H](C)O2)[C@H](C)[C@@H](O[C@@H]2O[C@H](C)C[C@H](N(C)C)[C@H]2O)[C@](C)(O)C[C@@H](C)CN(C)[C@H](C)[C@@H](O)[C@]1(C)O,MIC90,32 isolates,16 µg/mL
COc1ccc(CSc2nc3ccccc3[nH]2)cc1,MIC,MY330/88,32 µM
CN1CCN(CCCN2c3ccccc3Sc3ccc(C(F)(F)F)cc32)CC1,MIC50,32 isolates,8 µg/mL
CO[C@H]1/C=C/O[C@@]2(C)Oc3c(C)c(O)c4c(O)c(c(/C=N/N5CCN(C)CC5)c(O)c4c3C2=O)NC(=O)/C(C)=C\C=C\[C@H](C)[C@H](O)[C@@H](C)[C@@H](O)[C@@H](C)[C@H](OC(C)=O)[C@@H]1C,MIC90,40 isolates,25 µg/mL
CCn1cc(C(=O)O)c(=O)c2cc(F)c(N3CCNCC3)cc21,MIC,CIPT 14031003,20 µg/mL
CO/N=C(\C(=O)N[C@@H]1C(=O)N2C(C(=O)O)=CCS[C@H]12)c1csc(N)n1,MIC,35 isolates,6.25 µg/mL
O=C(O)c1cn(C2CC2)c2c(F)c(N3CC4CCCC(C3)N4)c(F)cc2c1=O,MIC,1915112,8 µg/mL
CCC(C)N1CCN(c2cc(=O)c3nc4c(oc3c2)c2c(=O)c3c(O)c(C)c5c(c34)=C(O)[C@@](C)(O/C=C/[C@H](OC)[C@@H](C)[C@@H](OC(C)=O)[C@H](C)[C@H](O)[C@H](C)[C@@H](O)[C@@H](C)/C=C/C=C(/C)C(=O)N2)O5)CC1,MIC,31F093T,0.035 µg/mL
c1ccc(CSc2nc3ccccc3[nH]2)cc1,MIC,MY330/88,125 µM
NCCC(O)C(N)CC(=O)NC1CNC(=O)C(C2CCN=C(N)N2)NC(=O)/C(=C/NC(N)=O)NC(=O)C(CO)NC(=O)C(CO)NC1=O,MIC,32 isolates,3 µg/mL

A second listing of 6 rows from above:

CCn1cc(C(=O)O)c(=O)c2cc(F)c(N3CCN(C)CC3)cc21 ; endpoint: MIC ; strain or isolate: CIPT 140310023 ; result: 20 µg/mL
CC[C@H]1OC(=O)[C@H](C)[C@@H](O[C@H]2C[C@@](C)(OC)[C@@H](O)[C@H](C)O2)[C@H](C)[C@@H](O[C@@H]2O[C@H](C)C[C@H](N(C)C)[C@H]2O)[C@](C)(O)C[C@@H](C)CN(C)[C@H](C)[C@@H](O)[C@]1(C)O ; endpoint: MIC90 ; strain or isolate: 32 isolates ; result: 16 µg/mL
NC(=S)c1ccc(CSc2nc3ccccc3[nH]2)cc1 ; endpoint: MIC ; strain or isolate: MY330/88 ; result: 32 µM
CCCC[C@@H]1CC(=O)[C@]2(O)O[C@@H]3[C@@H](NC)[C@@H](O)[C@@H](NC)[C@H](O)[C@H]3O[C@@H]2O1 ; endpoint: MIC50 ; result: 10.4 µg/mL
NC1CCN(c2c(F)cc3c(=O)c(C(=O)O)cn(C4CC4)c3c2Cl)C1 ; endpoint: MIC ; strain or isolate: 101 ; result: 15 µg/mL
N#Cc1cccc(CSc2nc3ccccc3[nH]2)c1 ; endpoint: MIC ; strain or isolate: MY330/88 ; result: >62 µM